Results of unrelated studies side by side (data: NIAID ChemDB).

All rows: whole-cell or culture tests

MIC50, MIC90 and the like: level of inhibition, or share of isolates inhibited. Blank or dashed fields: not listed here. a–b is a range or a potency band. Lines come from different laboratories, so protocols vary. Inhibition is in % at the dose shown (toxicity tests: loss of growth or viability).

smiles | organism | strain | method | setting | endpoint | dose | value
CCCCCCCCCCCCCCCCNC(=O)NC(CCC(=O)O)(CCC(=O)O)CCC(=O)O | Mycobacterium chelonae | EO-P-1 |  |  | MIC |  | 18 µg/mL
Cc1nc2ccccn2c1C(=O)NCc1ccc(OC(F)(F)F)cc1 | Mycobacterium ulcerans |  | fluorescence |  | MIC50 |  | 0.1–1 µg/mL
CCCCCCCCC(CCCCCCCC)NC(=O)NC(CCC(=O)O)(CCC(=O)O)CCC(=O)O | Mycobacterium marinum | ATCC 927 |  |  | MIC |  | 27 µg/mL
Cc1ccc2nc(C)c(C(=O)NCc3ccc(N4CCN(c5ccc(OC(F)(F)F)cc5)[C@@H](C)C4)c(F)c3)n2c1 | Mycobacterium avium |  | fluorescence |  | inhibition | 0.0022 µM | 85%
CC1(C)N=C(N)N=C(N)N1OCCCOc1cc(Cl)c(Cl)cc1Cl | Mycobacterium avium complex | CFR |  |  | MIC |  | 1 µg/mL
CCc1nc2cc(C)ccn2c1C(=O)NCc1ccc(Oc2cccc(C(F)(F)F)c2)cc1 | Mycobacterium avium |  | fluorescence |  | inhibition | 0.59 µM | 85%
CO[C@H]1/C=C/O[C@@]2(C)Oc3c(C)c(O)c4c(=O)c(c5oc6cc(N7CCN(CC(C)C)CC7)cc(=O)c6nc5c4c3=C2O)NC(=O)/C(C)=C\C=C\[C@H](C)[C@H](O)[C@@H](C)[C@@H](O)[C@@H](C)[C@H](OC(C)=O)[C@@H]1C | Mycobacterium avium complex | N-979 (HIV+) |  |  | MIC |  | 0.0625 µg/mL
CO[C@@]1(NC(=O)Cc2ccccc2)C(=O)N2C(C(=O)[O-])=C(CSc3nnc(C)s3)CSC21 | Mycobacterium fortuitum | 1049 |  |  | MIC |  | 25 µg/mL
CCc1nc2cc(F)ccn2c1C(=O)NCc1ccc(N2CCN(c3ccc(OC(F)(F)F)c(F)c3)[C@@H](C)C2)c(F)c1.Cl | Mycobacterium avium |  | fluorescence |  | inhibition | 0.0025 µM | 85%
CCCCCCCCCCCCC(CCCCCCCCCCCC)OC(=O)NC(CCC(=O)O)(CCC(=O)O)CCC(=O)O | Mycobacterium marinum | ATCC 927 |  |  | MIC |  | 285 µg/mL
Cc1ccn2c(C(=O)NCc3ccc(N4CCN(c5ccc(C(F)(F)F)cn5)CC4)c(C(F)(F)F)c3)c(C)nc2c1 | Mycobacterium avium |  | fluorescence |  | inhibition | 0.35 µM | 85%
CCCCCCCCCCCCCCCCC(=O)NC(C)(CCC(=O)O)CCC(=O)O | Mycobacterium abscessus | AAy-P-1 |  |  | MIC |  | 36 µg/mL
C[C@@H]1CN(c2c(F)c(N)c3c(=O)c(C(=O)O)cn(C4CC4)c3c2F)C[C@H](C)N1 | Mycobacterium avium complex | N-265 (HIV-) |  |  | MIC |  | 2 µg/mL
CO[C@@]1(NC(=O)Cn2cnnn2)C(=O)N2C(C(=O)O)=C(CSc3nnc(C)s3)CSC21 | Mycobacterium fortuitum | 1030-8 |  |  | MIC |  | 100 µg/mL
CC(NC(=O)c1c(Cl)nc2ccccn12)c1ccc(N2CCN(C)CC2)cc1 | Mycobacterium ulcerans |  | fluorescence |  | MIC50 |  | >10 µg/mL
Nc1ccc(S(=O)(=O)c2ccc(N)cc2)cc1 | Mycobacterium avium complex | DW23 |  |  | MIC |  | 32 µg/mL
NNC(=O)c1ccncc1 | Mycobacterium avium complex | N-259 (HIV-) |  |  | MIC |  | 1 µg/mL
Cc1ccc2oc(=S)n(-c3ccc(Cl)c(Cl)c3)c(=S)c2c1 | Mycobacterium kansasii | 6509/96 |  | 21 d | MIC |  | 8 µM
CCCCCCCCCCC(CCCCCCCCCC)NC(=O)NC(CCC(=O)O)(CCC(=O)O)CCC(=O)O | Mycobacterium chelonae | EO-P-1 |  |  | MIC |  | 27 µg/mL
Cc1nc2cnccn2c1C(=O)NCc1ccc(N2CCN(c3ccc(OC(F)(F)F)cc3)CC2)c(F)c1 | Mycobacterium avium |  | fluorescence |  | inhibition | 0.66 µM | 85%
CC[C@H]1OC(=O)[C@H](C)[C@@H](O[C@H]2C[C@@](C)(OC)[C@@H](O)[C@H](C)O2)[C@H](C)[C@@H](O[C@@H]2O[C@H](C)C[C@H](N(C)C)[C@H]2O)[C@](C)(OC)C[C@@H](C)C(=O)[C@H](C)[C@@H](O)[C@]1(C)O | Mycobacterium abscessus | AAy-P-1 |  |  | MIC |  | 0.2 µg/mL
Cc1ccn2c(C(=O)NCc3ccc(-c4ccccc4)cc3)c(C)nc2c1 | Mycobacterium ulcerans |  | fluorescence |  | MIC50 |  | 0.1–1 µg/mL
O=c1oc2ccc(Br)cc2c(=S)n1-c1ccc(Cl)c(Cl)c1 | Mycobacterium kansasii | My 235/80 |  | 14 d | MIC |  | 4 µM
CO[C@H]1/C=C/O[C@@]2(C)Oc3c(C)c(O)c4c(O)c(c(/C=N/N5CCN(C6CCCC6)CC5)c(O)c4c3C2=O)NC(=O)/C(C)=C\C=C\[C@H](C)[C@H](O)[C@@H](C)[C@@H](O)[C@@H](C)[C@H](OC(C)=O)[C@@H]1C | Mycobacterium avium intracellulare | 92 |  |  | MIC |  | 0.125 µg/mL
CO[C@@]1(NC(=O)CCCC(N)C(=O)O)C(=O)N2C(C(=O)O)=C(COC(C)=O)CSC21 | Mycobacterium fortuitum | 1045 |  |  | MIC |  | >100 µg/mL
CCCCCCCCCCCCCC(=O)NC(CCC(=O)O)(CCC(=O)O)CCC(=O)O | Mycobacterium marinum | ATCC 927 |  |  | MIC |  | 288 µg/mL
CC[C@H]1OC(=O)[C@H](C)[C@@H](O[C@H]2C[C@@](C)(OC)[C@@H](O)[C@H](C)O2)[C@H](C)[C@@H](O[C@@H]2O[C@H](C)C[C@H](N(C)C)[C@H]2O)[C@](C)(OC)C[C@@H](C)C(=O)[C@H](C)[C@@H](O)[C@]1(C)O | Mycobacterium avium complex | N-319 (HIV-) |  |  | MIC |  | 4 µg/mL
COc1ccc2oc(=O)n(-c3ccc(Cl)cc3)c(=S)c2c1 | Mycobacterium kansasii | My 235/80 |  | 14 d | MIC |  | 16 µM
O=C(NCc1ccc(OC(F)F)cc1)c1c(Cl)nc2ccccn12 | Mycobacterium ulcerans |  | fluorescence |  | MIC50 |  | 0.1–1 µg/mL
CO[C@@]1(NC(=O)C2SC(=C(C(N)=O)C(=O)[O-])S2)C(=O)N2C(C(=O)[O-])=C(CSc3nnnn3C)CS[C@@H]21 | Mycobacterium fortuitum | AO5 |  |  | MIC |  | 25 µg/mL
Cc1nc2cc(F)ccn2c1C(=O)NCc1ccc(N2CCC(c3ccc(OC(F)(F)F)cc3)CC2)c(F)c1 | Mycobacterium avium |  | fluorescence |  | inhibition | 0.016 µM | 85%
Cc1ccc(-n2c(=O)oc3ccc(Br)cc3c2=S)cc1 | Mycobacterium kansasii | 6509/96 |  | 21 d | MIC |  | 4 µM
Cc1ccn2c(C(=O)NCc3ccc(N4CCN(c5ccc(OC(F)(F)F)cc5)[C@@H](C)C4)c(F)c3)c(C(F)(F)F)nc2c1 | Mycobacterium avium |  | fluorescence |  | inhibition | 0.045 µM | 85%
O=c1oc2ccc(F)cc2c(=S)n1-c1ccc(Br)cc1 | Mycobacterium kansasii | 6509/96 |  | 21 d | MIC |  | 4 µM
Cc1ccn2c(C(=O)NCc3ccc(N4CCN(c5ccc(OC(F)(F)F)cc5)[C@@H](C)C4)c(C(F)(F)F)c3)c(C)nc2c1 | Mycobacterium avium |  | fluorescence |  | inhibition | 0.25 µM | 85%
CO[C@H]1/C=C/O[C@@]2(C)Oc3c(C)c(O)c4c(=O)c(c5oc6cc(N7CCN(CC(C)C)CC7)cc(=O)c6nc5c4c3=C2O)NC(=O)/C(C)=C\C=C\[C@H](C)[C@H](O)[C@@H](C)[C@@H](O)[C@@H](C)[C@H](OC(C)=O)[C@@H]1C | Mycobacterium ulcerans | Isolate 842 |  |  | MIC |  | 0.012 µg/mL
CCc1nc2ccc(Cl)cn2c1C(=O)NCc1cc(F)c(N2CCC(c3ccc(OC(F)(F)F)cc3)CC2)c(F)c1.Cl | Mycobacterium avium |  | fluorescence |  | inhibition | 0.011 µM | 85%
CO[C@@]1(NC(=O)CSCC#N)C(=O)N2C(C(=O)O)=C(CSc3nnnn3C)CS[C@@H]21 | Mycobacterium fortuitum | 914-8 |  |  | MIC |  | 3.12 µg/mL

The last 4 rows once more:

{"smiles": "Cc1ccn2c(C(=O)NCc3ccc(N4CCN(c5ccc(OC(F)(F)F)cc5)[C@@H](C)C4)c(C(F)(F)F)c3)c(C)nc2c1", "organism": "Mycobacterium avium", "method": "fluorescence", "endpoint": "inhibition", "dose": "0.25 µM", "value": "85%"}
{"smiles": "CO[C@H]1/C=C/O[C@@]2(C)Oc3c(C)c(O)c4c(=O)c(c5oc6cc(N7CCN(CC(C)C)CC7)cc(=O)c6nc5c4c3=C2O)NC(=O)/C(C)=C\\C=C\\[C@H](C)[C@H](O)[C@@H](C)[C@@H](O)[C@@H](C)[C@H](OC(C)=O)[C@@H]1C", "organism": "Mycobacterium ulcerans", "strain": "Isolate 842", "endpoint": "MIC", "value": "0.012 µg/mL"}
{"smiles": "CCc1nc2ccc(Cl)cn2c1C(=O)NCc1cc(F)c(N2CCC(c3ccc(OC(F)(F)F)cc3)CC2)c(F)c1.Cl", "organism": "Mycobacterium avium", "method": "fluorescence", "endpoint": "inhibition", "dose": "0.011 µM", "value": "85%"}
{"smiles": "CO[C@@]1(NC(=O)CSCC#N)C(=O)N2C(C(=O)O)=C(CSc3nnnn3C)CS[C@@H]21", "organism": "Mycobacterium fortuitum", "strain": "914-8", "endpoint": "MIC", "value": "3.12 µg/mL"}